{
  "source": "patent US20240374736A1",
  "about": "“INHALED LIQUID FOR THE TREATMENT OF RESPIRATORY INFECTIONS IN HUMANS CAUSED BY PATHOGENS RESISTANT TO ANTIBIOTICS” (priority 2023, published 2024)",
  "system": "humans",
  "assay": "Clinical pilot study of side effects on 80 humans (inhalation)",
  "conditions": "blood before the test, on 4th and 8th day",
  "data": [
    {"compound": "C=CCc1ccc(O)c(OC)c1.CCN(CC)CC(=O)Nc1c(C)cccc1C", "note": "[novel compound, N-[N′-(carboxymethylenyl-2,6-dimethyl-aniline)-N,N-diethylammonium]-[2′-methoxy-4′-(2′-propenyl)]-phenolate]", "values": [
      {"measurement": "liver function biochemical analysis from blood samples", "result": "no negative clinical or acute effects on the hepatic function"}
    ]}
  ]
}
